Measured values from several laboratories, pooled; numbers as filed in NIAID ChemDB.

Shared fields: whole-cell or culture tests; agent: HIV-1

Blank or dashed fields: not listed here.

| smiles | cells | mutations | strain | read-out | setting | read by | value |
|---|---|---|---|---|---|---|---|
| Cc1ncc(-c2ccc(OCCOc3ccc(Cl)cc3F)nc2)c(N2CCC(C)(C)CC2)c1[C@H](OC(C)(C)C)C(=O)O | MT-2 |  | NL4-3 | EC50 |  | luminescence | 0.0037 µM |
| COc1ccc(-n2ncc3c(N4CC[C@@H](NC(C)=O)C4)nc(C)nc32)cc1OC | H9 |  |  | EC50 |  | p24 | >100 µM |
| Fc1ccccc1Cn1cc(COc2nsnc2-c2cccc3ccccc23)nn1 | MT-4 |  | IIIB | EC50 |  | MTT | >79 µM |
| S=C1N=C(Cl)C2(NN1)c1ccccc1-c1ccccc12 | CEM |  |  | EC50 |  | cytopathic effect / XTT | >20 µM |
| COc1ccc(-c2csc3c(N4CC[C@@H](NC(C)=O)C4)ncnc23)cc1OC | H9 |  |  | EC50 |  | p24 | >100 µM |
| Nc1ccn([C@H]2CS[C@@H](COC(=O)CCCCCNCCCCCNCc3ccccc3)O2)c(=O)n1 | MT-4 |  | LAV | EC50 |  | syncytia | 2.03 µM |
| CC1(C)OC(c2cnn(-c3ccccc3)n2)C(C(O)CN2CCCC2)O1 | CEM + CEM-SS |  | IIIB | EC50 |  | cytopathic effect / MTS | >100 µM |
| O=C1c2c(O)c(O)cc(S(=O)(=O)NCCCCCCNS(=O)(=O)c3cc(O)c(O)c4c3CN(Cc3ccc(F)c(Cl)c3)C4=O)c2CN1Cc1ccc(F)c(Cl)c1 |  |  |  | EC50 |  |  | 5.5 µM |
| CCc1c(C(=O)c2cc(C)cc(C)c2)n(CC2CC=CC2)c(=O)[nH]c1=O |  | RT-E6E/K V106I Y181C F227L | IIIB-SJ-3366 P21 (RT-E6E/K V106I Y181C F227L) | EC50 |  |  | >567 µM |
| COC(=O)c1ccc(NC(=O)COc2nsnc2-c2cccc3ccccc23)c(Br)c1 | MT-4 |  | IIIB | EC50 |  | MTT | >100 µM |
| COc1ccc(-c2c(C)nc3c(N4CC[C@@H](NC(C)=O)C4)cc(-c4ccccc4)nn23)cc1OC | H9 |  |  | EC50 |  | p24 | 0.7 µM |
| NC1=NNC2(C(=O)N1)c1ccccc1-c1ccccc12 | CEM |  |  | EC50 |  | cytopathic effect / XTT | >200 µM |
| Nc1ccn([C@@H]2CS[C@H](CO)O2)c(=O)n1 | MAGI |  | IIIB | EC50 |  | single cycle | 7.5 µg/mL |
| CCCOCCCNC(=O)[C@@H](NC(=O)[C@H](Cc1ccc(OC)c(OC)c1OC)C[C@H](O)[C@H](Cc1ccccc1)NC(=O)OC(C)(C)C)C(C)C | MT-2 |  | MN | EC50 |  | RT activity | <0.03 µM |
| Cc1cc(Cl)ccc1OCCOc1ccc(-c2cnc(C)c([C@H](OC(C)(C)C)C(=O)O)c2N2CCC(C)(C)CC2)cn1 | MT-2 |  | NL4-3 | EC50 |  | luminescence | 0.005 µM |
| O=C(NCCCCCCNC(=O)c1cc2cc(O)c(O)cc2[nH]1)c1cc2cc(O)c(O)cc2[nH]1 | CEM |  |  | EC50 |  | cytopathic effect / MTT | >26 µM |
| CC1(C)OC(C(O)CN2CCCCC2)[C@H](c2cnn(-c3ccccc3)n2)O1 | CEM + CEM-SS |  | IIIB | EC50 |  | cytopathic effect / MTS | >100 µM |
| O=C(CCCCCNCCCCCNCc1ccccc1)Nc1ccn([C@H]2CS[C@@H](CO)O2)c(=O)n1 | MT-4 |  | LAV | EC50 |  | syncytia | 10 µM |
| COc1cc(-c2c(C)nc3c(N4CC[C@@H](NC(C)=O)C4)cc(C)nn23)cc(OC)c1OC | H9 |  |  | EC50 |  | p24 | 1 µM |
| NC(=O)NO | U-937 |  |  | EC50 |  | p24 | <200 µM |
| COCCNC(=O)[C@@H](NC(=O)[C@H](Cc1ccc(OC)c(OC)c1OC)C[C@H](O)[C@H](Cc1ccccc1)NC(=O)OC(C)(C)C)C(C)C | MT-2 |  | MN | EC50 |  | RT activity | <0.03 µM |
| COc1ccc(-c2c(C)nc3c(N4CC[C@@H](NC(C)=O)C4)cc(C)nn23)cn1 | H9 |  |  | EC50 |  | p24 | 0.5 µM |
| CCN(CC)Cc1cnc2c(C(=O)Nc3ccc4nc[nH]c4c3)cnn2c1 | TZM-bl |  | NL4-3 | EC50 |  | luciferase | 5.4 µM |
| COCCNC(=O)[C@@H](NC(=O)[C@H](Cc1ccccc1)C[C@H](O)[C@H](Cc1ccccc1)NC(=O)OC(C)(C)C)C(C)C | MT-2 |  | MN | EC50 |  | RT activity | <0.1 µM |
| Cc1ncc(-c2ccc(OCCN3CCOCC3)cn2)c(N2CCC(C)(C)CC2)c1[C@H](OC(C)(C)C)C(=O)O | MT-2 |  | NL4-3 | EC50 |  | luminescence | 0.0245 µM |
| Nc1ccn([C@H]2CS[C@@H](COC(=O)CCCCCNCc3ccccc3)O2)c(=O)n1 | MT-4 |  | LAV | EC50 |  | syncytia | 10 µM |
| COCCCNC(=O)[C@@H](NC(=O)[C@H](Cc1ccc(OC)c(OC)c1OC)C[C@H](O)[C@H](Cc1ccccc1)NC(=O)OC(C)(C)C)C(C)C | MT-2 |  | MN | EC90 |  | RT activity | 0.03 µM |
| O=C(NCCc1ccccc1)c1cc2cc3c(cc2[nH]1)OCO3 | CEM |  |  | EC50 |  | cytopathic effect / MTT | >200 µM |
| CC(=O)O[C@H]1CC[C@H](O)CC[C@@H](C)/C=C/[C@@]2(C)CC[C@@H](C(C)(C)OC(C)=O)[C@H]12 | MT-2 |  |  | EC50 |  | cytopathic effect / MTT | 4.1 µM |
| Cc1ccc(C)c(CS(=O)(=O)c2cccc[n+]2[O-])c1 | CEM |  | IIIB | EC50 |  | cytopathic effect | 5.3 µg/mL |
| O=C1NC(=S)NNC12c1ccccc1-c1ccccc12 | CEM |  |  | EC50 |  | cytopathic effect / XTT | >200 µM |
| Nc1ccn([C@H]2CS[C@@H](COC(=O)CCCCCNCCCCNCc3ccccc3)O2)c(=O)n1 | MT-4 |  | LAV | EC50 |  | syncytia | 1.8 µM |
| CC(=O)N[C@@H]1CCN(c2cc(C)nn3cc(C)nc23)C1 | H9 |  |  | EC50 |  | p24 | 8 µM |
| Cc1ccc(C(C)S(=O)(=O)c2c(C)ccc[n+]2[O-])c(C)c1 | CEM |  | RF | EC50 |  | cytopathic effect | 7.7 µg/mL |
| O=C(NCCCCCCNC(=O)c1cc2cc3c(cc2[nH]1)OCO3)c1cc2cc3c(cc2[nH]1)OCO3 | CEM |  |  | EC50 |  | cytopathic effect / MTT | >200 µM |
| CC(C)(C)OC(=O)N(CCCCCC(=O)Nc1ccn([C@H]2CS[C@@H](COC(=O)CCCCCN(CCCCCN(Cc3ccccc3)C(=O)OC(C)(C)C)C(=O)OC(C)(C)C)O2)c(=O)n1)CCCCCN(Cc1ccccc1)C(=O)OC(C)(C)C | MT-4 |  | LAV | EC50 |  | syncytia | 1 µM |
| O=C(COc1nsnc1-c1cccc2ccccc12)Nc1ccccc1[N+](=O)[O-] | MT-4 |  | IIIB | EC50 |  | MTT | 16 µM |
| Cc1ncc(-c2cnc(OCCN3CCOCC3)c(F)c2)c(N2CCC(C)(C)CC2)c1[C@H](OC(C)(C)C)C(=O)O | MT-2 |  | NL4-3 | EC50 |  | luminescence | 0.0027 µM |
| O=C(NCc1ccc2c(c1)OCO2)c1cc2cc3c(cc2[nH]1)OCO3 | CEM |  |  | EC50 |  | cytopathic effect / MTT | >200 µM |
| Cc1ccc(C)c(CSc2c(Cl)ccc[n+]2[O-])c1 | CEM | RT-K103N |  | EC50 |  | cytopathic effect | 4.8 µg/mL |
| CC(C)(C)OC(=O)N(CCCCCC(=O)OC[C@H]1O[C@@H](n2ccc(N)nc2=O)CS1)CCCCCN(Cc1ccccc1)C(=O)OC(C)(C)C | Macrophage + Monocytes/macrophages |  | PAR | EC50 |  | syncytia | 0.00001 µM |
| Cc1ccc(NC(=O)COc2nsnc2-c2cccc3ccccc23)c(Br)c1 | MT-4 |  | IIIB | EC50 |  | MTT | >14 µM |
| Cc1ncc(-c2ccc(OCCC3COC3)nc2)c(N2CCC(C)(C)CC2)c1[C@H](OC(C)(C)C)C(=O)O | MT-2 |  | NL4-3 | EC50 |  | luminescence | 0.0011 µM |
| O=C(CSC1=NNC2(C(=O)N1)c1ccccc1-c1ccccc12)NC(=S)Nc1ccccc1 | CEM |  |  | EC50 |  | cytopathic effect / XTT | >6.3 µM |
| C[C@@H]1O[C@H]2O[C@H]3[C@@H](OC[C@@H](O)[C@@H]3O)OC(=O)[C@]34CCC(C)(C)C[C@@]3(C)C3=CC[C@@]5(C)[C@@](C)(CC[C@@H]6[C@](C)(CO)[C@@H](O[C@@H]7O[C@H](CO)[C@@H](O)[C@H](O)[C@H]7O[C@@H]7O[C@@H](C(=O)C[C@](C)(O)CC(=O)O[C@@H]1[C@@H](O[C@@H]1OC[C@@H](O)[C@H](O)[C@H]1O)[C@H]2O)[C@H](O)[C@H](O)[C@H]7O)[C@@H](O)C[C@@]65C)[C@]3(C)CC4 | H9 |  | IIIB | EC50 |  | p24 | 24.1 µg/mL |
| CC1=C(C)CC(COCP(=O)(OCCSC(=O)C(C)(C)C)OCCSC(=O)C(C)(C)C)(n2ccc(N)nc2=O)C1 | MT-4 |  |  | EC50 |  | XTT | 39 µM |
| CC(C)[C@H](NC(=O)[C@H](Cc1ccccc1)C[C@H](O)[C@H](Cc1ccccc1)NC(=O)OC(C)(C)C)C(=O)N[C@@H](Cc1ccccc1)C(=O)N1CCOCC1 | MT-2 |  | MN | EC50 |  | RT activity | <0.03 µM |
| [N-]=[N+]=N[C@H]1C[C@H](n2ccc(=O)[nH]c2=O)O[C@@H]1COP(=O)(O)OP(=O)(O)O[C@H]1O[C@H](CO)[C@H](O)[C@H](O)[C@H]1O | PBMC |  | LAV | EC50 |  | RT activity | 0.02–0.41 µM |
| O=C(NCCCNC(=O)c1cc2cc(O)c(O)cc2[nH]1)c1cc2cc(O)c(O)cc2[nH]1 | CEM |  |  | EC50 |  | cytopathic effect / MTT | >3.6 µM |
| Nc1nc(NC2CC2)c2ncn([C@H]3C=C[C@@H](CO)C3)c2n1 | Jurkat cells |  |  | EC50 | pseudotyped | GFP / reporter gene / fluorescence | 0.026 µM |
| O=C(NCc1ccc(O)c(O)c1)c1cc2cc(O)c(O)cc2[nH]1 | CEM |  |  | EC50 |  | cytopathic effect / MTT | >33 µM |
| COc1ccc(Cn2cc(COc3nsnc3-c3cccc4ccccc34)nn2)cc1 | MT-4 |  | IIIB | EC50 |  | MTT | >116 µM |
| CC1=C(C)CC(COCP(=O)(OCCSC(=O)C(C)(C)C)OCCSC(=O)C(C)(C)C)(n2cnc3c(N)ncnc32)C1 | MT-4 |  |  | EC50 |  | XTT | 41 µM |
| O=C1N=C2SC=C(NC(=S)Nc3ccccc3)N2NC12c1ccccc1-c1ccccc12 | CEM |  |  | EC50 |  | cytopathic effect / XTT | >20 µM |
| Cl.NCCn1nnc2ccccc21 | MT-4 |  | IIIB | EC50 |  | MTT | >100 µM |
| Cc1cn([C@H]2C[C@H](N=[N+]=[N-])[C@@H](CO)O2)c(=O)[nH]c1=O | CEM + CEM-SS |  | RF | EC50 |  | cytopathic effect / MTS | 0.006 µM |
| O=C1c2c(O)c(O)cc(S(=O)(=O)NCCCNS(=O)(=O)c3cc(O)c(O)c4c3CN(Cc3ccc(F)c(Cl)c3)C4=O)c2CN1Cc1ccc(F)c(Cl)c1 |  |  |  | EC50 |  |  | 5.7 µM |
| COCCNC(=O)[C@@H](NC(=O)[C@H](Cc1ccc(OC)c(OC)c1)C[C@H](O)[C@H](Cc1ccccc1)NC(=O)OC(C)(C)C)C(C)C | MT-2 |  | MN | EC90 |  | RT activity | 0.1 µM |
| Cc1ncc(-c2cnc(OCC3(C)CCC3)c(F)c2)c(N2CCC(C)(C)CC2)c1[C@H](OC(C)(C)C)C(=O)O | MT-2 |  | NL4-3 | EC50 |  | luminescence | 0.0085 µM |
| O=C(O)C(O)c1ccccc1 | CD4+ T-CELLS + CD4 |  | IIIB | EC50 |  | p24 | <10 µg/mL |

For reference, 7 entries again:

smiles	cells	mutations	strain	read-out	setting	read by	value
COC(=O)c1ccc(NC(=O)COc2nsnc2-c2cccc3ccccc23)c(Br)c1	MT-4		IIIB	EC50		MTT	>100 µM
COCCNC(=O)[C@@H](NC(=O)[C@H](Cc1ccc(OC)c(OC)c1)C[C@H](O)[C@H](Cc1ccccc1)NC(=O)OC(C)(C)C)C(C)C	MT-2		MN	EC90		RT activity	0.1 µM
Nc1ccn([C@H]2CS[C@@H](COC(=O)CCCCCNCCCCCNCc3ccccc3)O2)c(=O)n1	MT-4		LAV	EC50		syncytia	2.03 µM
CC(=O)N[C@@H]1CCN(c2cc(C)nn3cc(C)nc23)C1	H9			EC50		p24	8 µM
O=C1N=C2SC=C(NC(=S)Nc3ccccc3)N2NC12c1ccccc1-c1ccccc12	CEM			EC50		cytopathic effect / XTT	>20 µM
COCCCNC(=O)[C@@H](NC(=O)[C@H](Cc1ccc(OC)c(OC)c1OC)C[C@H](O)[C@H](Cc1ccccc1)NC(=O)OC(C)(C)C)C(C)C	MT-2		MN	EC90		RT activity	0.03 µM
Nc1nc(NC2CC2)c2ncn([C@H]3C=C[C@@H](CO)C3)c2n1	Jurkat cells			EC50	pseudotyped	GFP / reporter gene / fluorescence	0.026 µM

ECn: concentration that inhibits the pathogen or its effect by n%. Rows are shuffled and stem from different studies. Two numbers with a dash give a range or band.